PubChem BioAssay AID1259414 – Drosophila RNAi Screening Center, 2018
Aim: 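Genome-wide screen for host control of endosymbiont load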 (primary screen). System: Drosophila JW18 cells infected with Wolbachia. Reagents: long dsRNA against Drosophila genes, 0.25 µg dsRNA per well of a 384-well plate. Duration: 5 days. Conditions: cells persistently infected with Wolbachia before knock-down; no added drug. Measurement: 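Automated imaging of bacterial rRNA staining divided by host cell count, reported as plate-normalised robust z-score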. Scale: Wolbachia per cell robust z: higher = more Wolbachia per host cell than the plate typical. Hit rule: 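Hit when robust z is 1.5 or more, or -1.5 or less, in at least two of three replicates; excludes dsRNAs with several or no targets, genes not expressed in JW18 and well A1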.
In all, the deposit lists about 24,000 reagents; below is a random part of those that have a named target and a result. In the full data, about 1,210 (5%) were called active. 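Inactive calls also include excluded dsRNAs with several or no targets, genes unexpressed in JW18, and well A1, regardless of score.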 The numbers tell different reagents against one gene apart. Names joined by + are all predicted targets of the reagent. No sequences are given here.

gene	dsRNA no.	Wolbachia per cell robust z, rep 1	Wolbachia per cell robust z, rep 2	Wolbachia per cell robust z, rep 3	call
CG32036	1	-7.21	-0.778	0.265	inactive
CG32036	2	-8.45	-2.41	-2.45	inactive
CG4702	1	-4.39	0.00231	0.548	inactive
CG32507	1	1.03	-0.3	-0.809	inactive
CG6034	1	-5.05	-0.254	-0.258	inactive
CG6034	2	-4.68	-4.95	-0.501	inactive
na (narrow abdomen)	1	0.362	0.972	-0.0735	inactive
na (narrow abdomen)	2	-7.79	0.837	0.407	inactive
Hsp70Bbb + Hsp70Bb	1	0.233	0.185	0.529	inactive
sif (still life)	1	-0.389	-0.467	-0.596	inactive
sif (still life)	2	-0.283	-0.302	0.518	inactive
sif (still life)	3	0.647	0.469	-0.778	inactive
sif (still life)	4	0.479	-0.221	-0.878	inactive
sif (still life)	5	-9.16	-0.644	-0.187	inactive
Asph (Aspartyl beta-hydroxylase)	1	0.653	0.326	0.473	inactive
Asph (Aspartyl beta-hydroxylase)	2	1.03	0.942	-1.15	inactive
Asph (Aspartyl beta-hydroxylase)	3	-8.38	0.227	-2.6	active
Myo61F (Myosin 61F)	1	-1.51	-1.21	-0.485	inactive
Myo61F (Myosin 61F)	2	-2.01	-2.92	-0.407	active
Hex-C (Hexokinase C)	1	0.933	-1.34	1.16	inactive
Hex-C (Hexokinase C)	2	-0.314	-0.292	-1.69	inactive
CG16789	1	0.413	0.21	-0.477	inactive
Not10 (CCR4-NOT transcription complex subunit 10)	1	-2.3	0.0969	-0.396	inactive
CG43774 + CG43773	1	-0.553	0.479	-0.464	inactive
CG43774 + CG43773	2	-0.77	-1.37	0.593	inactive

Part of the list above, set out differently:
| gene | dsRNA no. | Wolbachia per cell robust z, rep 1 | Wolbachia per cell robust z, rep 2 | Wolbachia per cell robust z, rep 3 | call |
| --- | --- | --- | --- | --- | --- |
| sif (still life) | 4 | 0.479 | -0.221 | -0.878 | inactive |
| sif (still life) | 5 | -9.16 | -0.644 | -0.187 | inactive |
| Asph (Aspartyl beta-hydroxylase) | 1 | 0.653 | 0.326 | 0.473 | inactive |
| Asph (Aspartyl beta-hydroxylase) | 2 | 1.03 | 0.942 | -1.15 | inactive |
| Asph (Aspartyl beta-hydroxylase) | 3 | -8.38 | 0.227 | -2.6 | active |
| Myo61F (Myosin 61F) | 1 | -1.51 | -1.21 | -0.485 | inactive |
| Myo61F (Myosin 61F) | 2 | -2.01 | -2.92 | -0.407 | active |

The results go on:
gene	dsRNA no.	Wolbachia per cell robust z, rep 1	Wolbachia per cell robust z, rep 2	Wolbachia per cell robust z, rep 3	call
CG2812	1	0.164	0.155	-2.22	inactive
CG2812	2	0.629	-0.351	-0.538	inactive
CG9815	1	-0.915	-2.5	-0.64	inactive
CG9815	2	0.443	-0.656	-0.0379	inactive
CG13380 + CG4174	1	0.0362	0.183	0.489	inactive
CG13380 + CG4174	2	-1.62	-0.296	1.01	inactive
Nprl2 (Nitrogen permease regulator-like 2)	1	-2.22	-0.0604	-0.0038	inactive
Acbp4 (Acyl-CoA binding protein 4)	1	-0.357	0.0099	0.481	inactive
Acbp4 (Acyl-CoA binding protein 4)	2	-1.66	-3.09	-1.21	inactive
CG10859	1	0.999	0.116	0.602	inactive
LanA (Laminin A)	1	-0.82	-7.83	-2.88	active
LanA (Laminin A)	2	0.553	0.369	-0.612	inactive
swif + cola	1	0.141	-0.285	0.875	inactive
swif + cola	2	-1.07	-1.46	0.302	inactive
MFS10 (Major Facilitator Superfamily Transporter 10)	1	-0.302	-10.9	-0.276	inactive
MFS10 (Major Facilitator Superfamily Transporter 10)	2	0.589	-1.03	0.106	inactive
CG31875	1	0.618	-0.00607	-1.07	inactive
Z600	1	-0.114	-1.03	-0.174	inactive
Jon25Bi (Jonah 25Bi)	1	-0.0341	-0.274	-0.246	inactive
Jon25Bi (Jonah 25Bi)	2	-2.09	0.312	-1.2	inactive
SmB (Small ribonucleoprotein particle protein SmB)	1	2.9	2.42	3.68	active
SmB (Small ribonucleoprotein particle protein SmB)	2	1.36	0.475	1.27	inactive
